Results of unrelated studies side by side (data: NIAID ChemDB).

Common to all: enzyme or target tests; organism: HIV-1; protein: Reverse transcriptase

Two numbers with a dash give a range or band. Rows are shuffled and stem from different studies. Blank or dashed fields: not listed here. ICn is the concentration giving n% inhibition.

structure | mutations | read by | endpoint | strain or isolate | value
CCN1c2ncc(CCOc3ccc(-c4ccc(N)nc4C)cc3C)cc2C(=O)N(C)c2cccnc21 |  | nucleotide incorporation / radiometric | IC50 | IIIB | <0.05 µM
CC(C)(C#Cc1ccc(NC(=O)CSc2nnnn2-c2ccc(C(C)(C)C)cc2Cl)c(Cl)c1)OCC(=O)NC1(C(=O)O)CC1 | RT-K103 Y181C | PicoGreen / fluorescence | IC50 |  | <1 µM
FC(F)(F)c1ccc2c(c1)CN(c1nn3c(C4CC4)nnc3c3ccccc13)CC2 |  | RT activity / fluorescence | IC50 | 98US_MSC5016 | 2.23 µM
CCN1c2ncc(CCOc3ccc(NC(=O)CC4(C(=O)O)CCCC4)cc3C)cc2C(=O)N(C)c2cccnc21 | RT-K103N Y181C | nucleotide incorporation / radiometric | IC50 | IIIB | >0.1 µM
CC(C)(C#Cc1ccc(NC(=O)CSc2nnnn2-c2cc(Cl)c(C3CC3)cc2Cl)c(Cl)c1)C(=O)O | RT-K103 Y181C | PicoGreen / fluorescence | IC50 |  | <1 µM
CCN1c2ncc(CCOc3ccc(NC(=O)CC(C)(C)C(=O)O)c4ccccc34)cc2C(=O)N(C)c2cccnc21 |  | nucleotide incorporation / radiometric | IC50 | WT | <0.1 µM
CN(C)c1ccc2c(c1)CN(c1nn3c(C4CC4)nnc3c3ccccc13)CC2 |  | RT activity / fluorescence | IC50 | KER2008 | 0.24 µM
Cc1cc(F)c(-n2nnnc2SCC(=O)Nc2ccc(-c3ccc(C(C)(C)C(=O)O)cc3)cc2Cl)c(Cl)c1 |  | PicoGreen / fluorescence | IC50 | WT | <1 µM
CCN1c2ncc(CCOc3ccc4cc(CC(=O)O)ccc4c3)cc2C(=O)N(C)c2cccnc21 | RT-K103N Y181C | nucleotide incorporation / radiometric | IC50 |  | >1 µM
CCN1c2ncc(CCOc3cccc(-c4ccccc4)c3)cc2C(=O)N(C)c2cccnc21 |  | nucleotide incorporation / radiometric | IC50 | IIIB | <0.05 µM
CCc1cc(CCc2nc3ccccc3o2)c(=O)[nH]c1C | RT-Y181F | nucleotide incorporation | IC50 |  | 0.0234 µM
CC(C)(C)c1ccc(-n2nnnc2SCC(=O)Nc2ccc(-c3ccc(OCC(=O)O)cc3Cl)cc2Cl)c(Cl)c1 |  | PicoGreen / fluorescence | IC50 | WT | <1 µM
CCN1c2ncc(CCOc3ccc(-c4cc(C(=O)O)ccc4F)cc3C)cc2C(=O)N(C)c2cccnc21 |  | nucleotide incorporation / radiometric | IC50 | IIIB | <0.05 µM
CC(C)Oc1ccc(Cl)c(-n2nnnc2SCC(=O)Nc2ccc(C#CC(C)(C)C(=O)O)cc2Cl)c1 |  | PicoGreen / fluorescence | IC50 | WT | <1 µM
CS(=O)(=O)Nc1ccc2c(c1)CN(c1nn3c(C4CC4)nnc3c3ccccc13)CC2 |  | RT activity / fluorescence | IC50 | 98US_MSC5016 | 0.74 µM
CC(C)CCC(=O)Nc1ccc(NC(=O)CSc2nnnn2-c2ccc(C(C)(C)C)cc2Cl)c(Cl)c1 |  | PicoGreen / fluorescence | IC50 | WT | <1 µM
CCN1c2ncc(CCOc3ccc(C(=O)N=c4ccn(O)cc4)cc3C)cc2C(=O)N(C)c2cccnc21 |  | nucleotide incorporation / radiometric | IC50 | IIIB | <0.05 µM
CC(C)(C)c1ccc(-n2nnnc2SCC(=O)Nc2ccc(NC(=O)Cc3ccc[n+]([O-])c3)cc2Cl)c(Cl)c1 | RT-K103 Y181C | PicoGreen / fluorescence | IC50 |  | <1 µM
CCN1c2ncc(CCOc3ccc(CCC(=O)O)c4ccccc34)cc2C(=O)N(C)c2ccc(Cl)nc21 |  | nucleotide incorporation / radiometric | IC50 | WT | <0.1 µM
Cc1c(N2CCc3ccccc3C2)nn2c(C)nnc2c1C |  | RT activity / fluorescence | IC90 | 98US_MSC5016 | 86.1 µM
CCN1c2ncc(CCOc3ccc4cc(C(=O)NC(C)(C)C(=O)O)ccc4c3)cc2C(=O)N(C)c2cccnc21 |  | nucleotide incorporation / radiometric | IC50 | WT | <0.1 µM
CC(C)(C#Cc1ccc(NC(=O)CSc2nnnn2-c2ccc(C3CC3)cc2Cl)c(Cl)c1)C(=O)NCCCN1CCCC1=O | RT-K103 Y181C | PicoGreen / fluorescence | IC50 |  | <1 µM
CCN1c2ncc(CCOc3ccc(-n4cc(C(=O)O)nn4)cc3C)cc2C(=O)N(C)c2cccnc21 | RT-K103N Y181C | nucleotide incorporation / radiometric | IC50 | IIIB | 0.05–0.1 µM
CC(C)(C)c1ccc(-n2nnnc2SCC(=O)Nc2ccc(S(=O)(=O)NCCc3ccccc3)cc2Cl)c(Cl)c1 | RT-K103 Y181C | PicoGreen / fluorescence | IC50 |  | <1 µM
CCN1c2ncc(CCOc3ccc(CC(=O)O)c4ccccc34)cc2C(=O)N(C)c2ccc(C)nc21 | RT-K103N Y181C | nucleotide incorporation / radiometric | IC50 |  | 0.1–1 µM
CCN1c2ncc(CCOc3ccc(-c4ccc(CCC(=O)O)cc4)cc3C)cc2C(=O)N(C)c2cccnc21 |  | nucleotide incorporation / radiometric | IC50 | IIIB | <0.05 µM
CCN1c2ncc(CCOc3ccc(C(=O)O)c4c3CCN(S(C)(=O)=O)C4)cc2C(=O)N(C)c2cccnc21 |  | nucleotide incorporation / radiometric | IC50 | WT | <0.1 µM
CCN1c2ncc(CCOc3ccc(-c4ccc(C(=O)O)cc4)c(C)c3)cc2C(=O)N(C)c2cccnc21 |  | nucleotide incorporation / radiometric | IC50 | IIIB | <0.05 µM